Our source for the rat_CLt and IC50 values is patent US20170253607A1.

Data set [1] is described as follows: Evaluation of total body clearance (CLtot), intravenous administration. As to conditions: rat (SD), intravenous administration 0.5-10 mg/kg; CLtot = dose/AUC. The class given is in vivo, Sprague-Dawley (SD).
A further data set deals with HIV-1 PR (Human immunodeficiency virus type 1 group M subtype B, UniProt P04585). Nature of the data set: HIV-protease inhibitory activity assay (FRET peptide substrate). The format is biochemical. The note with it: Test Example 1.

A word on the IC50: it is the concentration needed to halve the response being measured. Read a low IC50 as greater potency in that assay.

`COc1ccc(S(=O)(=O)N(CC(C)C)C[C@@H](O)[C@H](Cc2ccc(N3CC[C@H](Oc4cc5ccccc5cc4C(=O)Nc4sc5c(c4C(=O)O)CC(C)(C)CC5)C3)cc2)NC(=O)O[C@H]2CO[C@@]3(C)OCC[C@@H]23)cc1` returned a rat_CLt in data set [1] of 1.71 mL/h/kg. Further, the IC50 on HIV-1 PR came to 5.26 nM.

Compound `COc1ccc(S(=O)(=O)N(CC(C)C)C[C@@H](O)[C@H](Cc2ccc(NCc3ccccc3C(=O)Nc3sc4c(c3C(=O)O)CC(C)(C)CC4)cc2)NC(=O)O[C@H]2CO[C@H]3OCC[C@H]32)cc1` came in with a rat_CLt in data set [1] of 4.99 mL/h/kg. On HIV-1 PR, the IC50 stood at 2.64 nM.

In data set [1], `COc1ccc(S(=O)(=O)N(CC(C)C)C[C@@H](O)[C@H](Cc2ccc(NCc3cc(-c4ccncc4)ccc3-c3sc4c(c3C(=O)O)CC(C)(C)CC4)cc2)NC(=O)O[C@H]2CO[C@@]3(C)OCC[C@@H]23)cc1` yielded a rat_CLt of 3.96 mL/h/kg. For the same compound, at HIV-1 PR, the IC50 was determined as 1.9 nM.

As for `COc1ccc(S(=O)(=O)N(CC(C)C)C[C@@H](O)[C@H](Cc2ccc(OCc3cccc(C(=O)O)c3-c3ccc(F)cc3F)cc2)NC(=O)O[C@H]2CO[C@H]3OCC[C@H]32)cc1`, on HIV-1 PR, the IC50 is 0.74 nM.

Turning to `COc1ccc(S(=O)(=O)N(CC(C)C)C[C@@H](O)[C@H](Cc2ccc(OCC3CCCC3c3sc4c(c3C(=O)O)CC(C)(C)CC4)cc2)NC(=O)O[C@H]2CO[C@@]3(C)OCC[C@@H]23)cc1` (single isomer, unassigned) [I-9-1], the IC50 against HIV-1 PR came to 1.53 nM.

`COc1ccc(S(=O)(=O)N(CC(C)C)C[C@@H](O)[C@H](Cc2ccc(OCc3ccccc3-c3sc4c(c3C(=O)O)CC(C)(C)CC4)cc2)NC(=O)O[C@H]2CO[C@H]3OC[C@H](OCCO)[C@H]32)cc1`: on HIV-1 PR, the IC50 came to 1.3 nM.

At HIV-1 PR, `CC(C)CN(C[C@@H](O)[C@H](Cc1ccc(OCc2ccccc2-c2ccccc2C(N)=O)cc1)NC(=O)O[C@H]1CO[C@@]2(C)OCC[C@@H]12)S(=O)(=O)c1ccc2ncsc2c1` yielded an IC50 of 0.84 nM.

For the compound `COc1ccc(S(=O)(=O)N(CC(C)C)C[C@@H](O)[C@H](Cc2ccc(OCc3ccccc3-c3sc4c(c3C(=O)O)CCCCC4)cc2)NC(=O)O[C@H]2CO[C@@]3(C)OCC[C@@H]23)cc1`, the IC50 against HIV-1 PR was 1.16 nM.

In turn, `COc1ccc(S(=O)(=O)N(CC(C)C)C[C@@H](O)[C@H](Cc2ccc(-c3ccc(Cn4nc(C(=O)O)c5c4CCC(C)(C)C5)cc3)cc2)NC(=O)O[C@H]2CO[C@@]3(C)OCC[C@@H]23)cc1` displayed an IC50 on HIV-1 PR of 1.95 nM.

As for `COc1ccc(S(=O)(=O)N(CC(C)C)C[C@@H](O)[C@H](Cc2ccc(N(C)Cc3nc(N4CCCC4)sc3-c3sc4c(c3C(=O)O)CC(C)(C)CC4)cc2)NC(=O)O[C@H]2CO[C@@]3(C)OCC[C@@H]23)cc1`, in data set [1], the rat_CLt was found to be 49.6 mL/h/kg. In addition, the IC50 against HIV-1 PR stood at 2.01 nM.

In turn, `CC(C)CN(C[C@@H](O)[C@H](Cc1ccccc1)NC(=O)O[C@H]1CO[C@@]2(C)OCC[C@@H]12)S(=O)(=O)c1ccc(NCc2cccc(-c3sc4c(c3C(=O)O)CC(C)(C)CC4)c2)cc1` showed an IC50 on HIV-1 PR of 1.12 nM.

For `CC(C)CN(C[C@@H](O)[C@H](Cc1ccccc1)NC(=O)O[C@H]1CO[C@@]2(C)OCC[C@@H]12)S(=O)(=O)c1ccc2nc(NCCc3ccc(-c4sc5c(c4C(=O)O)CC(C)(C)CC5)cc3)sc2c1`, the IC50 against HIV-1 PR came to 0.84 nM.

In turn, `COc1ccc(S(=O)(=O)N(CC(C)C)C[C@@H](O)[C@H](Cc2ccc(NCc3ncccc3-c3ccccc3-c3sc4c(c3C(=O)O)CC(C)(C)CC4)cc2)NC(=O)O[C@H]2CO[C@@]3(C)OCC[C@@H]23)cc1` showed an IC50 against HIV-1 PR of 1.71 nM.

On to `COc1ccc(S(=O)(=O)N(CC(C)C)C[C@@H](O)[C@H](Cc2ccc(NCC3CCCCC3C(=O)Nc3sc4c(c3C(=O)O)CC(C)(C)CC4)cc2)NC(=O)O[C@H]2CO[C@@]3(C)OCC[C@@H]23)cc1` (single isomer, unassigned) [I-624], for which the IC50 against HIV-1 PR was 3.77 nM.

For the compound `COc1ccc(S(=O)(=O)N(CC(C)C)C[C@@H](O)[C@H](Cc2ccc(NCc3cc(C4CC4)ccc3-c3sc4c(c3C(=O)O)CC(C)(C)CC4)cc2)NC(=O)O[C@H]2CO[C@@]3(C)OCC[C@@H]23)cc1`, the rat_CLt in data set [1] turned out to be 12.7 mL/h/kg. The compound also displayed an IC50 at HIV-1 PR of 2.82 nM.

In turn, `COc1ccc(S(=O)(=O)N(CC(C)C)C[C@@H](O)[C@H](Cc2ccc(NCc3ccc(C#N)c(-c4sc5c(c4C(=O)O)CC(C)(C)CC5)c3)cc2)NC(=O)O[C@H]2CO[C@@]3(C)OCC[C@@H]23)cc1` had an IC50 against HIV-1 PR of 1.34 nM.

In data set [1], `COc1ccc(S(=O)(=O)N(CC(C)C)C[C@@H](O)[C@H](Cc2ccc(NC[C@@H]3CCCCN3C(=O)Nc3sc4c(c3C(=O)O)CC(C)(C)CC4)cc2)NC(=O)O[C@H]2CO[C@@]3(C)OCC[C@@H]23)cc1` gave a rat_CLt of 41.9 mL/h/kg. Further, on HIV-1 PR, the IC50 worked out at 1.93 nM.

Take `COc1ccc(S(=O)(=O)N(CC(C)C)C[C@@H](O)[C@H](Cc2ccc(OCc3ccccc3-c3sc4c(c3C(=O)O)C(O)C(C)(C)CC4=O)cc2)NC(=O)O[C@H]2CO[C@@]3(C)OCC[C@@H]23)cc1` (stereo partly shown): the IC50 against HIV-1 PR is 0.97 nM.

`COc1ccc(S(=O)(=O)N(CC(C)C)C[C@@H](O)[C@H](Cc2ccc(NCc3cc(-c4ccc(C(F)(F)F)cc4)ccc3-c3sc4c(c3C(=O)O)CC(C)(C)CC4)cc2)NC(=O)O[C@H]2CO[C@@]3(C)OCC[C@@H]23)cc1` showed a rat_CLt in data set [1] of 2.2 mL/h/kg. This compound registered a half-inhibitory concentration (IC50) against HIV-1 PR of 5.07 nM.

For the compound `CC1(C)CCc2sc(-c3ccc(OC[C@]45OCC[C@H]4[C@@H](OC(=O)N[C@@H](Cc4ccccc4)[C@H](O)CN(CC(F)F)S(=O)(=O)c4ccc6ncsc6c4)CO5)cc3)c(C(=O)O)c2C1`, on HIV-1 PR, the IC50 was determined as 2.85 nM.

`CC(C)CN(C[C@@H](O)[C@H](Cc1ccc(OCc2ccc(-c3ccccc3)cc2C(N)=O)cc1)NC(=O)O[C@H]1CO[C@@]2(C)OCC[C@@H]12)S(=O)(=O)c1ccc2ncsc2c1` had an IC50 on HIV-1 PR of 1.07 nM.

As to `COc1ccc(S(=O)(=O)N(CC(C)C)C[C@@H](O)[C@H](Cc2ccc(NCc3nc(N4CCCC4)ccc3-c3sc4c(c3C(=O)O)CC(C)(C)CC4)cc2)NC(=O)O[C@H]2CO[C@@]3(C)OCC[C@@H]23)cc1`, in data set [1], the rat_CLt was found to be 3.17 mL/h/kg. Moreover, the IC50 at HIV-1 PR is 1.73 nM.

`COc1ccc(S(=O)(=O)N(CC(C)C)C[C@@H](O)[C@H](Cc2ccc(NCc3cc(-c4ccccc4)ccc3-c3sc4c(c3C(=O)O)CC(C)(C)CC4)cc2)NC(=O)O[C@H]2CO[C@@]3(C)OCC[C@@H]23)cc1` came in with a rat_CLt in data set [1] of 2.84 mL/h/kg. On HIV-1 PR, the IC50 turned out to be 4.06 nM.

For `COc1ccc(S(=O)(=O)N(CC(C)C)C[C@@H](O)[C@H](Cc2ccc(N(C)CC3CCCCC3C(=O)Nc3sc4c(c3C(=O)O)CC(C)(C)CC4)cc2)NC(=O)O[C@H]2CO[C@@]3(C)OCC[C@@H]23)cc1` (single isomer, unassigned), the rat_CLt in data set [1] stood at 10.6 mL/h/kg. The IC50 at HIV-1 PR is 3.81 nM.

For the compound `COc1ccc(S(=O)(=O)N(CC(C)C)C[C@@H](O)[C@H](Cc2ccc(OCc3ccccc3-c3sc4c(c3C(=O)O)CCC4)cc2)NC(=O)O[C@H]2CO[C@@]3(C)OCC[C@@H]23)cc1`, the IC50 on HIV-1 PR turned out to be 3.08 nM.

Compound `COc1ccc(S(=O)(=O)N(CC(C)C)C[C@@H](O)[C@H](Cc2ccc(NCc3cc(N4CCCC4=O)ccc3-c3sc4c(c3C(=O)O)CC(C)(C)CC4)cc2)NC(=O)O[C@H]2CO[C@@]3(C)OCC[C@@H]23)cc1` showed a rat_CLt in data set [1] of 6.42 mL/h/kg. The compound further displayed an IC50 against HIV-1 PR of 1.96 nM.

As to `COc1ccc(S(=O)(=O)N(CC(C)C)C[C@@H](O)[C@H](Cc2ccc(NCc3cc(-c4ccc5ccccc5c4)ccc3-c3sc4c(c3C(=O)O)CC(C)(C)CC4)cc2)NC(=O)O[C@H]2CO[C@@]3(C)OCC[C@@H]23)cc1`, the rat_CLt in data set [1] is 2.35 mL/h/kg. Moreover, at HIV-1 PR, the IC50 was determined as 4.89 nM.

Turning to `CC(C)CN(C[C@@H](O)[C@H](Cc1ccc(OCc2ccccc2-c2sc3c(c2C(=O)O)CC(C)(C)CC3)cc1)NC(=O)O[C@H]1CO[C@@]2(C)OCC[C@@H]12)S(=O)(=O)c1ccc2nc(N3CCCC3)sc2c1`, the IC50 at HIV-1 PR came out at 17.7 nM.

On to `COc1ccc(S(=O)(=O)N(CC(C)C)C[C@@H](O)[C@H](Cc2ccccc2)NC(=O)O[C@H]2CO[C@@]3(CNC(=O)c4cc(Cl)cc(Cl)c4O)OCC[C@@H]23)cc1`, for which the IC50 against HIV-1 PR stood at 6.62 nM.

In the case of `COc1ccc(S(=O)(=O)N(CC(C)C)C[C@@H](O)[C@H](Cc2ccc(N(C)Cc3cc4c(cc3-c3sc5c(c3C(=O)O)CC(C)(C)CC5)OCC(=O)N4)cc2)NC(=O)O[C@H]2CO[C@@]3(C)OCC[C@@H]23)cc1`, the IC50 against HIV-1 PR stood at 3.29 nM.

Compound `COc1ccc(S(=O)(=O)N(CC(C)C)C[C@@H](O)[C@H](Cc2ccc(CN(C)[C@H]3CCCC[C@H]3c3sc4c(c3C(=O)O)CC(C)(C)CC4)cc2)NC(=O)O[C@H]2CO[C@@]3(C)OCC[C@@H]23)cc1` had an IC50 against HIV-1 PR of 1.98 nM.

As for `COc1ccc(S(=O)(=O)N(CC(C)C)C[C@@H](O)[C@H](Cc2ccc(OCc3ccc(-c4sc5c(c4C(=O)O)CC(C)(C)CC5)cc3)cc2)NC(=O)O[C@H]2CO[C@@]3(C)OCC[C@@H]23)cc1`, the IC50 against HIV-1 PR turned out to be 1 nM.

`COc1ccc(S(=O)(=O)N(CC(C)C)C[C@@H](O)[C@H](Cc2ccc(NC[C@H]3CCCC[C@H]3c3sc4c(c3C(=O)O)CC(C)(C)CC4)cc2)NC(=O)O[C@H]2CO[C@H]3OCC[C@H]32)cc1`: the rat_CLt in data set [1] was 22.3 mL/h/kg. This compound registered an IC50 against HIV-1 PR of 2.64 nM.

Turning to `COc1ccc(S(=O)(=O)N(CC(C)C)C[C@@H](O)[C@H](Cc2ccc(NCC3CCCCC3C(=O)Nc3sc4c(c3C(=O)O)CC(C)(C)CC4)cc2)NC(=O)O[C@H]2CO[C@@]3(C)OCC[C@@H]23)cc1` (single isomer, unassigned) [I-623], in data set [1], the rat_CLt worked out at 110 mL/h/kg. For the same compound, the IC50 against HIV-1 PR turned out to be 4.24 nM.

`CC(C)CN(C[C@@H](O)[C@H](Cc1ccccc1)NC(=O)O[C@H]1CO[C@@]2(C)OCC[C@@H]12)S(=O)(=O)c1ccc2nc(NCCOc3ccc(-c4sc5c(c4C(=O)O)CC(C)(C)CC5)cc3)sc2c1`: the IC50 against HIV-1 PR was found to be 1.02 nM.

The compound `COc1ccc(S(=O)(=O)N(CC(C)C)C[C@@H](O)[C@H](Cc2ccc(N[C@H]3CCc4c(-c5sc6c(c5C(=O)O)CC(C)(C)CC6)cccc43)cc2)NC(=O)O[C@H]2CO[C@@]3(C)OCC[C@@H]23)cc1` had an IC50 on HIV-1 PR of 3.8 nM.

The compound `CCNc1nc2ccc(S(=O)(=O)N(CC(C)C)C[C@@H](O)[C@H](Cc3ccc(OCc4ccccc4-c4sc5c(c4C(=O)O)CC(C)(C)CC5)cc3)NC(=O)O[C@H]3CO[C@@]4(C)OCC[C@@H]34)cc2s1` had an IC50 on HIV-1 PR of 51 nM.

Consider `COc1ccc(S(=O)(=O)N(CC(C)C)C[C@@H](O)[C@H](Cc2ccc(Nc3nccc(-c4sc5c(c4C(=O)O)CC(C)(C)CC5)n3)cc2)NC(=O)O[C@H]2CO[C@@]3(C)OCC[C@@H]23)cc1`, for which, on HIV-1 PR, the IC50 is 1.83 nM.
